# According to article PMC5459902 (Scientific Reports, 2017):
# System: CC(C)[C@H](NC[C@@]1(O)OC[C@@H](O)[C@@H](O)[C@@H]1O)C(=O)O
# Assay: purified protein
# Settings: oxidase activity, O2 as electron acceptor, 10 mM potassium phosphate pH 7.0, 298 K, 25.0 °C
substance,measurement,value
PnFPOX (Parastagonospora nodorum SN15; N56A),Km,109 ± 6.2 µM
same,Vmax,5.47 µmol/min/mg
same,Vmax/Km,50200 µL/min/mg
